According to article PMC3605390, “Characterisation of ATP-Dependent Mur Ligases Involved in the Biogenesis of Cell Wall Peptidoglycan in Mycobacterium tuberculosis” (PLoS ONE, 2013):

Key:
Test in all cases: purified protein
Conditions in all cases: pH 8.5; 37.0 °C
N[C@@H](CO)C(=O)O = system: N[C@@H](CO)C(=O)O
[1] = system: Nc1ncnc2c1ncn2[C@@H]1O[C@H](COP(=O)(O)OP(=O)(O)OP(=O)(O)O)[C@@H](O)[C@H]1O
C[C@H](N)C(=O)O = system: C[C@H](N)C(=O)O
NCC(=O)O = system: NCC(=O)O
[2] = system: CC(=O)N[C@H]1[C@@H](OP(=O)(O)OP(=O)(O)OC[C@H]2O[C@@H](n3ccc(=O)[nH]c3=O)[C@H](O)[C@@H]2O)O[C@H](CO)[C@@H](O)[C@@H]1O[C@H](C)C(=O)O
[3] = system: CC(=O)N[C@H]1[C@@H](OP(=O)(O)OP(=O)(O)OC[C@H]2O[C@@H](n3ccc(=O)[nH]c3=O)[C@H](O)[C@@H]2O)O[C@H](CO)[C@@H](O)[C@@H]1O[C@H](C)C(=O)N[C@@H](C)C(=O)O
N[C@H](CCC(=O)O)C(=O)O = system: N[C@H](CCC(=O)O)C(=O)O

Substance	Km (N[C@@H](CO)C(=O)O)	kcat/Km (N[C@@H](CO)C(=O)O)	Km [1]	kcat/Km [1]	Km (C[C@H](N)C(=O)O)	kcat/Km (C[C@H](N)C(=O)O)	Km (NCC(=O)O)	kcat/Km (NCC(=O)O)	Km [2]	kcat/Km [2]	Km [3]	kcat/Km [3]	Km (N[C@H](CCC(=O)O)C(=O)O)	kcat/Km (N[C@H](CCC(=O)O)C(=O)O)
MurC (Mycobacterium tuberculosis H37Rv)	99.7 ± 0.5 µM	12500 M⁻¹ s⁻¹	67.7 ± 1.1 µM	15100 M⁻¹ s⁻¹	43.0 ± 0.9 µM	23900 M⁻¹ s⁻¹	146.5 ± 1.6 µM	10500 M⁻¹ s⁻¹	23.5 ± 0.5 µM	44800 M⁻¹ s⁻¹				
MurD (Mycobacterium tuberculosis H37Rv)			106.4 ± 0.1 µM	7500 M⁻¹ s⁻¹							53.3 ± 0.1 µM	15100 M⁻¹ s⁻¹	85.1 ± 0.2 µM	9400 M⁻¹ s⁻¹
MurF (Mycobacterium tuberculosis H37Rv)			92.3 ± 0.2 µM	15300 M⁻¹ s⁻¹										
